Anti-infective test results gathered from many reports (values: NIAID ChemDB through PubChem).

Shared fields: whole-cell or culture tests

Two numbers with a dash give a range or band. ECn: concentration that inhibits the pathogen or its effect by n%. Inhibition is in % at the dose shown (toxicity tests: loss of growth or viability). Neighbouring rows are from separate reports. An empty or dashed field is not shown. A number after MIC or MFC names an inhibition level or a share of isolates.

structure,dose,strain or isolate,species,read by,cell line,endpoint,result
CCCCCCCCCCCC[N+](C)(C)COCCCCCCC,-,ATCC33592,Staphylococcus aureus,-,-,MBC,2.64 µM
CCC(CC)O[C@@H]1C=C(C(=O)O)C[C@H](N)[C@H]1NC(C)=O,-,H1N1 isolate C23D,Influenza A virus,plaque count,MDCK,EC50,0.1 µg/mL
Nc1nc2c(ncn2COC(CO)CO)c(=O)[nH]1,-,VR3480 (ganciclovir-resistant),Human cytomegalovirus,plaque count,-,EC50,22 µM
Cc1cn([C@@H]2O[C@H](CO)[C@@H](O)[C@@H]2O)c(=O)[nH]c1=O,0.1 µg/mL,YS,Varicella zoster virus,plaque count,HELF,inhibition,0%
CC(=O)Oc1cccc2c1C(=O)c1c(cnn1C)C2=O,100 µM,-,Cryptosporidium parvum,-,-,inhibition,100%
COC(=O)[C@H]1[C@@H]2C[C@@H](O[C@@H]3O[C@H](C)[C@@H](O)[C@H](N)[C@@H]3O)/C=C/C=C/C=C/C=C/C=C/C=C/C=C/[C@H](C)[C@@H](O)[C@H](C)[C@H](C)OC(=O)C[C@H](O)C[C@H](O)[C@@H](O)CC[C@H](O)C[C@H](O)C[C@](O)(C[C@@H]1O)O2,100 µg/mL,TYPE 4,Adenovirus,plaque count,HFF,inhibition,10%
O=C1c2cccc(Cl)c2C(=O)c2cn[nH]c21,50 µM,-,Cryptosporidium parvum,-,-,inhibition,99%
CN(C)c1cc(NC(=O)CNC(C)(C)C)c(O)c2c1C[C@H]1C[C@H]3[C@H](N(C)C)C(=O)C(C(N)=O)=C(O)[C@@]3(O)C(=O)C1=C2O,-,40 strains (vancomycin-resistant),Enterococcus faecium,-,-,MIC50,≤0.06 µg/mL
CCCCCCCCCCCC[N+](C)(C)COCCC(C)CCCC(C)C,-,ATCC33592,Staphylococcus aureus,-,-,MBC,23.8 µM
Nc1ccn(C[C@@H](CO)OCP(=O)(O)O)c(=O)n1,-,-,Rat cytomegalovirus,plaque count,REF-5,EC50,0.5 µM
Cc1cc(O)c2c(c1Cl)C(=O)c1cn[nH]c1C2=O,25 µM,-,Cryptosporidium parvum,-,-,inhibition,<10%
CCC(=O)C(CCCCCCc1ccc(OCCN(CC)CC)cc1)C(=O)CC,-,-,Equine herpesvirus 4,-,-,MIC,>50 µg/mL
O=[N+]([O-])c1ccc(C=Nc2ccccc2O)cc1,-,VM-MCMMPI,Cryptococcus neoformans,-,-,MIC99,32 µg/mL
Cn1cc(C(=O)NCc2ccc(Cl)cc2)c(=O)c2cc(CN3CCOCC3)ccc21,6.4 µM,LY,Human cytomegalovirus,plaque count,HFF,inhibition,90%
Nc1nc2c(ncn2COC(CO)CO)c(=O)[nH]1,-,-,Simian varicella-zoster virus,plaque count,VERO,EC50,18 µM
CCCc1cc(=O)oc2cc(OC(=O)C(C)(C)C)c3c(c12)OC(C)(C)C=C3,-,Chicago-1,Measles virus,virus yield,CV-1,EC90,0.3 µg/mL
O=C(NCCc1ccccc1)Nc1nc2ccc(Cl)cc2s1,10 µg/mL,-,HIV-2,RT activity,MT-4,inhibition,98%
CCN=C1NC2C(OC(CO)C(O)C2O)S1,10 µM,-,Kaposi sarcoma virus,flow cytometry,HEK 293,inhibition,44%
CCCCCCCCOC(=O)[C@]1(O)C[C@@H](O)[C@@H](O)[C@H](OC(=O)/C=C/c2ccc(O)c(O)c2)C1,-,CB 108.08,Aspergillus ochraceus,absorbance,-,MIC50,1100 µM
CCCCCCCCCCCC[N+](C)(C)COC(C)CCCCCC,-,ATCC33592,Staphylococcus aureus,-,-,MBC,3.06 µM
O=C(NC(=O)c1ccccc1O)c1ccc(OCc2ccccc2)cc1,-,-,Toxoplasma gondii,-,Human foreskin fibroblasts,MIC90,>0.25 µM
O=C(O)P(=O)(O)O,200 µM,AD169,Cytomegalovirus,hybridisation,HFF,inhibition,75.4%
Cc1ccnc(NC(=O)NCCc2ccccc2)n1,-,-,HIV-2,RT activity,MT-4,EC50,>10 µg/mL
COC(=O)c1ccccc1C(=O)Nc1ccc(C(=O)NC(=O)c2ccccc2O)cc1,-,-,Toxoplasma gondii,-,Human foreskin fibroblasts,MIC50,>1 µM
Cc1nc(NC(=O)NCCc2ccccc2)sc1C,0.1 µg/mL,-,HIV-2,cytopathic effect / XTT,MT-4,inhibition,13%
Nc1nc(=O)n([C@@H]2O[C@H](CO)[C@@H](O)[C@@H]2F)cc1I,0.01 µg/mL,HIRAI,Varicella zoster virus,plaque count,HELF,inhibition,80%
CCO/N=C/c1ccc(OCCC2CCN(c3ccc(Cl)nn3)CC2)cc1,-,2268-CV37 (ICAM-1 receptor group 60),Rhinovirus,neutral red,KB,EC50,0.258 µM
C=C(C)C1COc2cc(OC)c3c(c2C1)OC(c1ccccc1)=CC3OC,12 µM,Type 2/Mexican isolate,Dengue virus,plaque count,LLC-MK2,inhibition,36.4%
Cc1nc(NCCCCNc2ccnc3cc(Cl)ccc23)nc(-c2ccccc2[N+](=O)[O-])c1C(=O)OC(C)C,-,LMM 820,Cryptococcus neoformans,-,-,MIC99,8 µg/mL
CN[C@H]1CC[C@@H](c2ccc(Cl)c(Cl)c2)c2ccccc21,-,H99,Cryptococcus neoformans,broth dilution,-,MIC90,6 µg/mL
CCC(=O)C(CCCCCCc1ccc(O)cc1)C(=O)CC,-,-,Equine herpesvirus 4,virus yield,-,EC50,<100 µg/mL
CCCc1cc(=O)oc2cc(OS(=O)(=O)c3ccc(C)cc3)cc(O)c12,-,NS2,Measles virus,cytopathic effect,CV-1,EC50,0.5 µg/mL
N=C(N)c1ccc2nc(-c3ccc(-c4nc5ccc(C(=N)N)cc5[nH]4)[nH]3)[nH]c2c1,-,Isolate 2370 fluconazole-resistant,Candida albicans,-,-,MFC,1.56 µg/mL
CCCc1cc(=O)oc2cc(OS(=O)(=O)c3ccc(C)cc3)cc(OS(=O)(=O)c3ccc(C)cc3)c12,-,BIL,Measles virus,cytopathic effect,CV-1,EC50,0.4 µg/mL
CCCCN1C(=O)[C@@H](Cc2ccccc2)NC1=S,100 µg/mL,-,HIV-2,RT activity,MT-4,inhibition,98%
Oc1ccccc1N=Cc1ccc(O)c(O)c1O,-,ATCC 24065,Cryptococcus gattii,-,-,MIC99,11.3 µg/mL
C=CCc1ccc(OC)c(OC)c1,-,3219,Candida tropicalis,turbidity,-,MIC90,345 µg/mL
O=C(NC(=O)c1ccccc1O)c1ccc(N2CCOCC2)cc1,-,-,Toxoplasma gondii,-,Human foreskin fibroblasts,MIC90,0.125–0.25 µM
O=C(NC1CC1)c1cc2c(s1)-c1ccccc1N(C(=O)c1ccc(NC(=O)c3ccccc3-c3ccccc3)cc1)CC2,-,YM-53403-R02 Y1631H mutation,Respiratory syncytial virus,plaque count,HeLa,EC50,>25 µM
CC(C)(C)c1ccc(CSc2ncnc3c2ncn3[C@@H]2O[C@H](CO)[C@@H](O)[C@H]2O)cc1,5 µM,RH adenosine kinase-deficient,Toxoplasma gondii,-,-,inhibition,0%
O=C(NC(=O)c1ccc(Cl)cc1Cl)c1ccccc1O,-,-,Toxoplasma gondii,-,Human foreskin fibroblasts,MIC90,>1 µM
CCCc1cc(=O)oc2c3c(c4c(c12)OC(C)(C)[C@H](O)[C@@H]4O)O[C@H](C)[C@@H](C)[C@@H]3O,-,BIL,Measles virus,cytopathic effect,CV-1,EC50,0.9 µg/mL
Cc1cn([C@@H]2O[C@H](CO)[C@@H](O)[C@@H]2F)c(=O)nc1N,0.001 µg/mL,YS,Varicella zoster virus,plaque count,HELF,inhibition,8%
CC(N)C12CC3CC(CC(C3)C1)C2,-,Influenza A H3N2 isolate 241,Influenza A virus,ELISA,MDCK,EC50,14 µg/mL
CCCCCCCCCCCC[N+](C)(C)CSCCCCC,-,ATCC 6538,Staphylococcus aureus,-,-,MBC,13.7 µM
Cn1cc2c(n1)C(=O)c1cc3ccccc3c(O)c1C2=O,25 µM,-,Cryptosporidium parvum,-,-,inhibition,<10%
OC[C@H]1O[C@@H](n2c(Br)nc3cc(Cl)c(Cl)cc32)[C@H](O)[C@@H]1O,-,TOWNE,Human cytomegalovirus,virus yield,-,EC50,<0.18 µM
Cn1ncc2c1C(=O)c1c(O)c3c(c(O)c1C2=O)CCCC3,10 µM,-,Cryptosporidium parvum,-,-,inhibition,<10%
Oc1ccccc1N=Cc1ccc2c(c1)OCO2,-,29/10893,Cryptococcus gattii,-,-,MIC99,8 µg/mL
CN1C(=O)[C@@H](Cc2ccccc2)NC1=S,1 µg/mL,-,HIV-2,RT activity,MT-4,inhibition,1%
CCCCCCCCCCCC[N+](C)(C)COCC(C)CC,-,ATCC 6538,Staphylococcus aureus,-,-,MBC,8.57 µM
Nc1nc2c(ncn2COCCO)c(=O)[nH]1,1 µg/mL,OKA,Varicella zoster virus,plaque count,HELF,inhibition,57%
N#Cc1ccc(CSc2ncnc3c2ncn3[C@@H]2O[C@H](CO)[C@@H](O)[C@H]2O)cc1,10 µM,RH (WILD TYPE),Toxoplasma gondii,-,-,inhibition,54.8%
CO/N=C1\CN(c2nc3c(cc2F)c(=O)c(C(=O)O)cn3C2CC2)CC1CN,-,13 strains,Escherichia coli,-,-,MIC50,0.031 µg/mL
CCC(=O)C(CCCCCCc1ccc(O)cc1Cl)C(=O)CC,-,-,Equine herpesvirus 4,-,-,MIC,>50 µg/mL
CCc1ccc(C(=O)NC(=O)c2ccccc2OC)cc1,-,-,Toxoplasma gondii,-,Human foreskin fibroblasts,MIC50,>0.25 µM
O=C1[C@@H](Cc2ccccc2)NC(=S)N1Cc1ccccc1,1 µg/mL,-,HIV-2,cytopathic effect / XTT,MT-4,inhibition,35%
Cc1[nH]nc2c1C(=O)c1c(O)ccc(O)c1C2=O,100 µM,-,Cryptosporidium parvum,-,-,inhibition,90%
Cc1ccc(C)n1-c1ccc(C(=O)O)c(O)c1,-,93IN101 R5 CLADE C,HIV-1,p24,PBMC + MT-2,EC90,10.94 µM
COc1cc(C)cc2c1C(=O)c1cnn(C)c1C2=O,50 µM,-,Cryptosporidium parvum,-,-,inhibition,43%
CCCCCCCCCCCCOC[N+](C)(C)CCCCCCCC,-,ATCC33592,Staphylococcus aureus,-,-,MBC,25.5 µM
CCC(=O)C(CC/C=C/CCc1ccc(C)cc1)C(=O)CC,-,-,Equine herpesvirus 4,-,-,MIC,>50 µg/mL
O=C(NCc1ccc(Cl)cc1)c1c[nH]c2ccc(CCCO)cc2c1=O,-,GEI,Varicella zoster virus,plaque count,-,EC50,0.1 µM
CCCCCCCCCCCC[N+](C)(C)COC1CCCCCCCCCCC1,-,ATCC33592,Staphylococcus aureus,-,-,MBC,26.9 µM
CCc1ccc(C(=O)NC(=S)c2ccccc2O)cc1,-,-,Toxoplasma gondii,-,Human foreskin fibroblasts,MIC90,>0.25 µM
Cc1cccc2c1C(=O)c1cnn(C)c1C2=O,10 µM,-,Cryptosporidium parvum,-,-,inhibition,<10%
C=Cc1cn([C@@H]2O[C@H](CO)[C@@H](O)[C@@H]2O)c(=O)[nH]c1=O,1 µg/mL,Ohtomo,Varicella zoster virus,plaque count,HELF,inhibition,100%

A second listing of 4 rows from above:

structure,dose,strain or isolate,species,read by,cell line,endpoint,result
O=C(NC(=O)c1ccccc1O)c1ccc(OCc2ccccc2)cc1,-,-,Toxoplasma gondii,-,Human foreskin fibroblasts,MIC90,>0.25 µM
CCCc1cc(=O)oc2cc(OS(=O)(=O)c3ccc(C)cc3)cc(O)c12,-,NS2,Measles virus,cytopathic effect,CV-1,EC50,0.5 µg/mL
CN1C(=O)[C@@H](Cc2ccccc2)NC1=S,1 µg/mL,-,HIV-2,RT activity,MT-4,inhibition,1%
Cc1cc(O)c2c(c1Cl)C(=O)c1cn[nH]c1C2=O,25 µM,-,Cryptosporidium parvum,-,-,inhibition,<10%